# Results of single-concentration screens

Source: ChEMBL document CHEMBL3988442, “University of Dundee, Small-Polar-MMV Screening Library” (2021).

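Phenotypic screen: M. tuberculosis growth, cholesterol and DPPC medium, 4 days; the read-out is not stated. Concentration: 500 µM. Higher reads as more growth inhibition (inferred: compounds with an IC50 in retests scored well above the rest). About 18,000 compounds were tested under these conditions; 5% (about 900) showed 50% or more at least once.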

Values are the deposited “Percent Effect”, in %.
The controls that fix the scale are not given in the record; negative values are as filed.
This is part of a subset picked to be rich in strong results.

compound,percent effect
COc1ccc(NC(=O)C2CCCN2S(C)(=O)=O)cn1 (centres undefined),-76.94
CC(CO)Sc1ccc(S(=O)(=O)C(F)F)cc1 (centres undefined),73.96
O=C(C1CC1)N1CCN(Cc2cccc(F)c2)CC1,60.75
O=C(CCn1cc(Br)cn1)NCc1cccs1,61.26
CC(NC(=O)c1ccc(Cl)c(S(C)(=O)=O)c1)C1CC1 (centres undefined),25.73
CC1=CS(=O)(=O)c2c(F)cccc21,-5.629
CNC(=O)CN1CCC(Oc2ccccc2)C1 (centres undefined),36.95
CSc1ncc(CN2CCC(NC(C)=O)C2)cn1 (centres undefined),3.767
CC(C#N)Sc1ccc(S(=O)(=O)N2CCCC2)cn1 (centres undefined),-5.251
CCCn1nnc(NC(=O)c2ccccc2F)n1,62.03
CCCN1CCN(C2CCNCC2)CC1,-4.052
COCCn1cc(Br)cn1,-10.61
Cc1cccc(C(=O)Nc2cc[nH]n2)c1F,6.081
C[S+]([O-])CCNC(=O)NC1CCCCC1 (centres undefined),11.67
CCOc1ccc(CC(=O)N2CCN(CC)CC2)cc1,37.84
O=C(NCc1[nH]ncc1Br)Nc1nc2c(s1)COCC2,38.44
CCC(c1nnc(SCC(=O)NCC(C)C)o1)N(C)C (centres undefined),54.71
Cc1ccc(NC(=O)CN2CCNC(=O)C2)c(Cl)c1,-8.983
O=C(CN1CCC(C(F)(F)F)CC1)N1CCNC1=O,-3.363
NCc1ccc(-c2nc3cnccc3o2)cc1,14.41
CC(C)c1csc(C(=O)N2CCn3cncc3C2)n1,3.837
COc1ccc(NC(=O)C(C)n2cccn2)cn1 (centres undefined),-271.2
CCCn1nc(C(=O)NCc2ccccn2)ccc1=O,-5.617
CC(=O)N1CCC(N)c2ccc(F)cc2C1 (centres undefined),-2.519
FC(F)(F)c1cccnc1NCC1CCCO1 (centres undefined),1.804
CCn1ccc(CNC(=O)CCn2cc(Br)c(C)n2)n1,20.04
O=C(NCc1cccs1)c1cnccn1,51.97
CC(O)CNC(=O)c1ccc(-c2ccccc2F)o1 (centres undefined),29.68
C[C@@H]1CN(C(=O)c2ccns2)C[C@@]1(O)C1CC1,7.946
CCc1noc(C)c1C(=O)NCCCN1CCOCC1,-1.139
CSCc1noc(CN2CCN(C3CCNC3)CC2)n1 (centres undefined),-6.871
Nc1nc(NCc2ccncc2)cc(-n2cccn2)n1,-13.62
CCCNC(=O)Cn1cc(NC(=O)C(C)(C)C)cn1,-11.16
CSc1ccc(C(CN)N(C)C)cc1 (centres undefined),73.55
CCC[C@H]1CN(CCCO)C[C@@H]1NC(=O)c1cnn[nH]1,-1.593
CC1CCN(C(=O)CSc2nncs2)CC1,61.44
Cc1cc(N(C)C(=O)C(C)N)ccc1Br (centres undefined),17.36
O=C(NC1COC1)c1ccc(Br)cn1,18.09
COc1ccccc1-c1noc(CN)n1,-4.864
Cc1cc(NC(=O)C[S+]([O-])c2cccs2)no1 (centres undefined),10.64
NCCSCc1ccccc1F,43.39
NCC1CCCN(Cc2ccccc2)C1 (centres undefined),3.822
OCCN1CCN(CCc2ccccc2)CC1,13.07
COc1ccc(CN(C)C(=O)C2CC2)cc1F,80.87
CCS(=O)(=O)N(C)C(=O)CCc1c[nH]c2ccccc12,87.36
CC(C)Cn1ccnc1CNc1ncccc1F,55.12

The last 3 entries again:

With COc1ccc(CN(C)C(=O)C2CC2)cc1F the screen gave 80.87%.
With CCS(=O)(=O)N(C)C(=O)CCc1c[nH]c2ccccc12 the screen gave 87.36%.
With CC(C)Cn1ccnc1CNc1ncccc1F the screen gave 55.12%.